PubChem BioAssay AID624099, ICCB-Longwood – 2012
Assay: 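Human genes that papillomavirus E2 requires to repress the HPV18 LCR promoter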 (primary screen). System: human C33A cervical carcinoma cells (HPV-negative) stably expressing BPV1 E2 and an HPV18 LCR luciferase reporter. Reagent: siRNA pool against human genes, 40 nM. Timing: 72 h. Detection: 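Per-well luciferase luminescence, z-scored on each plate against the plate mean and SD with control wells left out, then averaged across three replicate plates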. Scale: mean z-score and z-score: higher = stronger reporter signal, weaker E2 silencing. Hit rule: 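Hit if mean z-score reaches 2 and two or more of three replicate z-scores also reach 2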.
In all, the deposit lists about 21,000 reagents; below is an unselected part. In the full data, 497 (2.4%) are marked active. 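Higher z means weaker E2 silencing; only reporter increases were scored, and knock-downs that hurt cell survival may mask genuine repressor factors.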

Gene	mean z-score	z-score, replicate A	z-score, replicate B	z-score, replicate C	outcome
C1S (complement C1s)	0.84	0.98	0.79	0.74	inactive
LOC387761 (retired record)	-0.93	-0.79	-0.85	-1.14	inactive
STK31 (serine/threonine kinase 31)	-0.15	-0.2	-0.16	-0.1	inactive
HIVEP1 (HIVEP zinc finger 1)	0.47	0.45	0.68	0.3	inactive
ZNF148 (zinc finger protein 148)	0.79	1.17	0.63	0.57	inactive
VPS4B (vacuolar protein sorting 4 homolog B)	0.17	0.12	0.57	-0.16	inactive
LRRIQ3 (leucine rich repeats and IQ motif containing 3)	0.36	0.33	0.13	0.61	inactive
RTN3 (reticulon 3)	-0.2	-0.17	-0.19	-0.23	inactive
DGKD (diacylglycerol kinase delta)	-1.32	-1.25	-1.29	-1.43	inactive
GRAPL (GRB2 related adaptor protein like)	0.05	0.35	-0.28	0.06	inactive
PEF1 (penta-EF-hand domain containing 1)	0.42	0.57	0.2	0.49	inactive
FPR3 (formyl peptide receptor 3)	0.34	0.66	0.1	0.26	inactive
AADAC (arylacetamide deacetylase)	-0.06	-0.02	-0.16	-0.01	inactive
PSMB10 (proteasome 20S subunit beta 10)	-0.15	0.2	-0.17	-0.49	inactive
RAPGEF5 (Rap guanine nucleotide exchange factor 5)	0.16	0	0.25	0.23	inactive
LOC388938 (retired record)	0.55	0.61	0.83	0.19	inactive
BRD1 (bromodomain containing 1)	-0.91	-0.72	-1.01	-1	inactive
LINC01343 (long independently transcribed non-coding RNA 1343)	-0.63	-0.96	-0.56	-0.37	inactive
LINC00550 (long independently transcribed non-coding RNA 550)	-1.89	-1.53	-1.94	-2.2	inactive
INO80E (INO80 complex subunit E)	-1.59	-1.45	-1.44	-1.87	inactive
TMEM8B (transmembrane protein 8B)	-0.04	0.13	-0.1	-0.15	inactive
TSPAN18 (tetraspanin 18)	-1.13	-1.39	-1	-1.01	inactive
RFX8 (regulatory factor X8)	-0.29	-0.19	-0.09	-0.6	inactive

3 successive reagents already listed, for reference:
Gene	mean z-score	z-score, replicate A	z-score, replicate B	z-score, replicate C	outcome
LOC387761 (retired record)	-0.93	-0.79	-0.85	-1.14	inactive
STK31 (serine/threonine kinase 31)	-0.15	-0.2	-0.16	-0.1	inactive
HIVEP1 (HIVEP zinc finger 1)	0.47	0.45	0.68	0.3	inactive
